This passage reports Fluorescence results from article PMC8286836, “Identifying SARS-CoV-2 antiviral compounds by screening for small molecule inhibitors of Nsp5 main protease” (Biochemical Journal, 2021).

Structures can show the parent of a compound that is named as a salt. Where a SMILES comes first, the peptide text is derived from it. [ ]: non-standard residue; d: D form. The star is where a group is joined. Nle = CCCC[C@H](N)C(=O)O; Cbz = O=C(OCc1ccccc1)*; CH2F = FC*

The nature of this data set: compound interference with the HTS emission wavelength (420 nm). Set-up: key: normal: drug compounds that did not interfere with the HTS emission wavelength; moderate: Those that interfered slightly but a reduction in nsp5 activity was still evident; HIGH: those that greatly interfered with the HTS fluorescence and so were likely artificial hits we classed as ‘high'. The note with it: interference with HTS emission wavelength 420 nm.
Regarding `C=CCn1c(=O)c2c(nc(-c3ccc(S(=O)(=O)O)cc3)n2C)n(C)c1=O` [1-Allyl-3,7-dimethyl-8-p-sulfophenylxanthine], the Fluorescence entry is recorded as “moderate”. As for `CC(C)=CCc1cc2c(cc1O)oc(=O)c1c3ccc(O)cc3oc21` [3,9-dihydroxy-2-(3-methyl-2-butenyl)-6H-[1]benzofuro[3,2-c]chromen-6-one], the entry is “HIGH”; as for `COc1ccc(-c2ccc3cc(C(=O)O)ccc3c2)cc1C12CC3CC(CC(C3)C1)C2` [Adapalene], “HIGH”. As for `COc1cc2nc(N(C)CCCNC(=O)C3CCCO3)nc(N)c2cc1OC` (stereo not drawn) [Alfuzosin], the entry is “HIGH”. The result for `O=C1O/C(=C/Br)CCC1c1cccc2ccccc12` (stereo not drawn) [Bromoenol lactone] reads “normal”; that for `Cc1ccccc1N=Nc1ccc(NC(=O)c2ccnn2C)c(C)c1` [CH-223191], “normal”; that for `O=C(O)CCCCC(CCSCc1ccccc1)SCc1ccccc1` (stereo not drawn) [CPI-613], “HIGH”. Consider `CCCC[C@@H](C=O)NC(=O)[C@H](CC(C)C)NC(=O)[C@H](CC(C)C)NC(C)=O` [Calpain Inhibitor I, (2S)-2-(acetylamino)-N-[(1S)-1-({[(1S)-1-formylpentyl]amino}carbonyl)-3-methylbutyl]-4-methylpentanamide] (Ac-Leu-Leu-[Nle]-aldehyde), for which the Fluorescence entry is reported as “normal”. As for `C=C1C[C@@]2(O)O[C@@]3(C[C@H]2C(C)C)[C@@H](C)CC[C@@H]13` [Curcumol], the entry is “HIGH”; as for `COc1cc2nc(N3CCN(C(=O)C4COc5ccccc5O4)CC3)nc(N)c2cc1OC.CS(=O)(=O)O` (stereo not drawn) [Doxazosin (mesylate)], “HIGH”; as for `CC(C)(C#N)c1ccc(N2C(=O)OCc3cnc4ccc(-c5cnc6ccccc6c5)cc4c32)cc1` [ETP-46464], “HIGH”. As for `Br.CCCc1cc(-c2nc(-c3ccc(C)cc3)cs2)ccn1` [Fatostatin HBr], the entry is “normal”; as for `Cn1c2ccccc2c2c3c(c4c5ccccc5n(CCC#N)c4c21)CNC3=O` [Go6976], “moderate”; as for `CN1C2CCCC1CC(NC(=O)c1nn(C)c3ccccc13)C2` (stereo not drawn) [Granisetron HCl], “HIGH”. As for `CC(C)[C@H](N=C(NS(=O)(=O)c1ccc(Cl)cc1)N1C[C@H](c2ccccc2)C(c2ccc(Cl)cc2)=N1)C(N)=O` [JD-5037], the entry is “HIGH”; as for `CN1CCN(c2c(F)cc3c(=O)c(C(=O)O)cn4c3c2OCN4C)CC1` [Marbofloxacin], “moderate”; as for `Cn1cc(-c2ccc3ncc(Cc4ccc5ncccc5c4)n3n2)cn1` [NVP-BVU972], “HIGH”.

For the molecule `COc1ccc(COc2cc3oc(=O)c4cc(C(C)O)ccc4c3cc2OC)cc1` (stereo not drawn) [Palomid 529], the Fluorescence entry is recorded as “HIGH”.

On to `COc1cc2nc(N3CCN(C(=O)c4ccco4)CC3)nc(N)c2cc1OC` [Prazosin hydrochloride], for which the Fluorescence entry was “HIGH”. For the molecule `Cc1ccc(S(=O)(=O)Cc2nc(-c3ccc(C(=O)NCc4cccnc4)cc3)oc2C)cc1` [STF-118804], the Fluorescence result was “HIGH”. As for `CCOc1ccc(Cc2cc([C@@H]3O[C@H](SC)[C@@H](O)[C@H](O)[C@H]3O)ccc2Cl)cc1` [Sotagliflozin (LX4211), Sotagliflozin], the entry is “normal”; as for `COc1cc2c(cc1OC)CN(CCc1ccc(NC(=O)c3cc(OC)c(OC)cc3NC(=O)c3cnc4ccccc4c3)cc1)CC2` [Tariquidar], “HIGH”. As for `COc1cc2ncc(-c3ccccc3)nc2cc1OC` [Tyrphostin AG 1296], the entry is “moderate”; as for `COC(=O)CCC(NC(=O)C(CC(=O)OC)NC(=O)OCc1ccccc1)C(=O)NC(C(=O)NC(CC(=O)OC)C(=O)CF)C(C)C` (stereo not drawn) [Z-DEVD-FMK], “normal”; as for `CCC(C)C(NC(=O)OCc1ccccc1)C(=O)NC(CCC(=O)OC)C(=O)NC(C(=O)NC(CC(=O)OC)C(=O)CF)C(C)O` (stereo not drawn) [Z-IETD-FMK] (Cbz-IE(OMe)TD(OMe)-CH2F; configuration not given here), “normal”. As for `COC(=O)CC(NC(=O)C(C)NC(=O)C(NC(=O)OCc1ccccc1)C(C)C)C(=O)CF` (stereo not drawn) [Z-VAD-FMK, Z-VAD(OMe)-FMK] (Cbz-Val-Ala-Asp(OMe)-CH2F; configuration not given here), the entry is “normal”; as for PDK1/Akt/Flt Dual Pathway Inhibitor, “moderate”.
